Target: SARS 3CL proteinase (Severe acute respiratory syndrome coronavirus, UniProt P0C6X7)
Experiment: biochemical
Format: binding, SARS-CoV

O=c1c(O[C@@H]2O[C@H](CO)[C@@H](O)[C@H](O)[C@H]2O)c(-c2ccc(O)c(O)c2)oc2cc(O)cc(O)c12 [IA-1, Quercetin-3-O-β-D-glucopyranoside]
Kd: 26.7 µM
coupling/affinity with SARS 3CL (in words): couple strongly

— patent US20090182133A1 (priority 2005, published 2009)
